Compound potency records, mixed from different reports. Data source: NIAID ChemDB in PubChem.

Common to all: growth or infection tests; agent: Respiratory syncytial virus

Neighbouring rows are from separate reports. Percent inhibition refers to the dose given; in toxicity tests it is the harm to the cells. ECn is the concentration giving n% inhibition of infection, replication or growth. An empty or dashed field is not shown.

compound | method | strain | cells | tested at | endpoint | value
Cc1ccc(O)c(Cn2c(NC3CCN(CCN)CC3)nc3ccccc32)n1 | MTT |  | HELA/M |  | EC50 | 0.0004 µM
CC(C)N(CCn1c(Cn2nnc3ccccc32)nc2cc([N+](=O)[O-])ccc21)C(C)C |  | LONG | HEP-2 | 4 µg/mL | inhibition | 55%
Cc1nnnn1/N=C/c1ccc(O)c(C(c2ccc(O)cc2)c2cc(/C=N/n3nnnc3C)ccc2O)c1 |  | A2 | HEP-2 |  | EC50 | 0.0014 µM
Cc1ccc(O)c(Cn2c(NC3CCN(CCN)CC3)nc3c(C)cccc32)n1 | MTT |  | HELA/M |  | EC50 | 0.00016 µM
CC(C)N(CCNCCn1c(Cn2nc3ccccc3n2)nc2ccccc21)C(C)C |  | LONG | HEP-2 | 4 µg/mL | inhibition | 100%
N=C(N)c1ccc2[nH]c(C(=N)N)cc2c1 | cytopathic effect | S-2 | HeLa |  | EC50 | >100 µg/mL
CN1CCC[C@]1(N)Cn1c(Cn2nnc3ccccc32)nc2ccccc21 |  | LONG | HEP-2 | 4 µg/mL | inhibition | 54%
C#Cc1c(C(N)=O)ncn1[C@@H]1O[C@H](CO)[C@@H](O)[C@H]1O | plaque count | TYPE 3/FM-58-8 | HeLa |  | EC50 | 0.09 µg/mL
CCCCCCCCCCCCCCCCCCCCCCOCC(C)(COCCCCCCCCCCCCCCCCCCCCCC)CO[C@]1(C(=O)O)C[C@H](OS(=O)(=O)O)[C@@H](NC(C)=O)[C@H]([C@H](OS(=O)(=O)O)[C@@H](COS(=O)(=O)O)OS(=O)(=O)O)O1 | plaque count | K656 | HEP-2 |  | EC50 | 0.3 µM
NC(=O)c1ncn([C@@H]2O[C@H](CO)[C@@H](O)[C@H]2O)n1 | plaque count | 20 | HEP-2 | 4 µg/mL | inhibition | 54%
NCCN1CCC(Nc2nc3ccccc3n2Cc2ncccc2O)CC1 | MTT |  | HELA/M |  | EC50 | 0.0025 µM
NC12CC3CC(CC(C3)C1)C2 | cytopathic effect | LONG | HeLa |  | EC50 | 72 µg/mL
Nc1nc2c(ncn2COC2COP(=O)(O)OC2)c(=O)[nH]1 | cytopathic effect | LONG | HeLa |  | EC50 | >125 µg/mL
COc1c(C)c2c(c(O)c1CC(=O)O)C(=O)OC2 | plaque count | TYPE A/FM-58-8 | HeLa |  | EC50 | 0.09 µg/mL
c1ccc2c(c1)CSSC2 | cytopathic effect | LONG | HeLa |  | EC50 | 3.1 µM
CCN(CC)CCCn1c(Cn2nc3ccccc3n2)nc2cc(C(F)(F)F)ccc21 |  | LONG | HEP-2 | 4 µg/mL | inhibition | 83%
NC(=O)c1[nH]nc([C@@H]2O[C@H](CO)[C@@H](O)[C@H]2O)c1O | cytopathic effect | 58-7 | HeLa |  | EC50 | 0.1 µg/mL

The last 2 rows once more:

compound	method	strain	cells	tested at	endpoint	value
CCN(CC)CCCn1c(Cn2nc3ccccc3n2)nc2cc(C(F)(F)F)ccc21		LONG	HEP-2	4 µg/mL	inhibition	83%
NC(=O)c1[nH]nc([C@@H]2O[C@H](CO)[C@@H](O)[C@H]2O)c1O	cytopathic effect	58-7	HeLa		EC50	0.1 µg/mL